Primary screen of a compound library

From ChEMBL document CHEMBL3988442, “University of Dundee, Small-Polar-MMV Screening Library” (2021).

Results are given as percent effect.
How 0% and 100% were set is not recorded. Most values in the screen are low, and negative values occur.
The entries come from a sample that favours strong results.
Two or more numbers in one place are separate tests of the same structure; such repeats can differ widely.
A dash means the value is not listed here; it may have been measured.

Mtb glucose medium: 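Phenotypic screen: M. tuberculosis growth, glucose 7H9 medium, 3 days; the read-out is not stated. Concentration: 50 µM. The record gives no direction; compounds that gave an IC50 in retests scored well above the rest, so higher reads as more growth inhibition. About 69,000 compounds were tested under these conditions; 1.1% (about 760) showed 50% or more at least once.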
Mtb cholesterol medium: 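Growth of Mycobacterium tuberculosis over 4 days (cholesterol / DPPC medium with tyloxapol); the read-out is not stated. Compounds at 50 µM. The record gives no direction; compounds that gave an IC50 in retests scored well above the rest, so higher reads as more growth inhibition. Of about 69,000 compounds tested this way, about 370 (0.54%) reached 50% or more in at least one test.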

compound,Mtb glucose medium,Mtb cholesterol medium
COCCCN(C)C(=O)Cn1cccc(OC)c1=O,-,-4.166
Brc1cnc(NCc2ccccc2N2CCOCC2)nc1,-,26.52
[H][C@@]12CCCO[C@]1([H])[C@H](NC(=O)CC1CC1)CN(Cc1ccoc1)C2,-,98.22
CCC(CNC(=O)c1ccccc1Br)N1CCc2ccccc2C1 (stereo unspecified),17.94 & 10.77,-
COc1cc(NCc2c(C)noc2C)c(OC)cc1Cl,12,-18.75
Cc1ccc(-c2noc(C(C)(C)NS(C)(=O)=O)n2)cc1F,31,-6.312
CCCn1nnc(NCc2ccc(-c3ccc(Br)cc3)o2)n1,10.86 & 29.41,14.46
O=C(CCc1cccs1)N1CCC(N2CCNC2=O)CC1,10.12,-
CCC(=O)N1CCC(Cc2cc(Nc3ncccn3)ncn2)CC1,-,2.175
CC(C)OCc1cccc(CNc2cnn(C)c(=O)c2Cl)c1,-,53.92
CC(CCc1ccc(O)cc1)NC1CCN(C(=O)C(C)C)CC1 (stereo unspecified),11.11,-
CN(Cc1cccc(OC(F)(F)F)c1)C(=O)c1ccncc1F,-1.801,-5.055
COCCOc1cccc(CNCc2ccc(-n3cncn3)nc2)c1,-,-9.668
CCOc1ccc(C(=O)CC(SC2CCCCC2)C(=O)O)cc1 (stereo unspecified),2.842 & 0.3932,-4.058
O=S(=O)(c1cc(F)ccc1N1CC(n2cccn2)C1)C(F)(F)F,37.95,23.6
CCC1CN(CCNS(C)(=O)=O)c2ccccc2O1 (stereo unspecified),-7.477 & -4.051,-8.509
Cc1ccc(-c2nnn(CCN3C(=O)CCC3=O)n2)cc1,-25.94,-15.59
CCc1cc(NC(=O)c2cccc(OCC(F)(F)F)n2)[nH]n1,50.06,-
[H][C@@]12CCN(C[C@@H]1CC)[C@@H](CNCc1ccc(N(C)C)cc1)C2,-1.692 & -13.95,-20.98
CN(C)[C@H]1CCN(c2nc(C(C)(C)C)nc3c2cnn3C)C1,57.17,-
Cc1ccc(N2CCCC3(CCCC(=O)N3)C2)nn1.O=C(O)C(F)(F)F (stereo unspecified),-,13.95
O=C(NCCc1ccccn1)N1CCSC2(CCCCC2)C1,26.98,-
Cc1nccc(-c2cccc(-c3ccn(CC4CCNC4)n3)c2)n1 (stereo unspecified),14.04,6.051
Cc1ccn(-c2ccccc2NCc2scnc2C)n1,50.6 & 27.16,-
Cc1ccc(CNC(=O)NCc2ccco2)s1,30.82,-
Cc1ccc(OCCSCCn2nc3ccccn3c2=O)cc1,-,70.2
Cc1nn(C)c2cnn(CC(=O)NCc3ccc(F)cc3)c12,-30.55,-
FC(F)(F)COc1ccc(CSCc2ccon2)cn1,22.61,0.7301
COc1cccc(C(=O)NCC(O)c2cccs2)c1 (stereo unspecified),2.619 & 25.96,-
Cc1c(C(=O)NC2CCCC2)nnn1-c1ccccc1,12.39 & 8.709,6.839
CCCC(C)(O)c1cc(C(N)=O)no1 (stereo unspecified),-14.82 & 0.8798,-4.677
O=C(O)C(F)(F)F.[H][C@@]12C[C@@H](c3nc(C4CC4)cs3)O[C@]1([H])CN(C(=O)C1CCOCC1)C2,-9.981,-
COc1ccc(CN(C(=O)C2CCCS2)c2ccncc2)cc1 (stereo unspecified),80.28 & 48.56,61.92
CCC(C)CNc1ccc2oc(COC)nc2c1 (stereo unspecified),-,52.25 & 24.39
Cc1nc(C2CCNCC2)cc(N2CCOc3ccccc3C2)n1,4.064,-
CSc1nc2ccsc2c(=O)n1CC(=O)NC1CCCCC1,20.43,-
Cc1cc(C(=O)NCCSC2CCCC2)no1,-17.43,-
CC(C)N1CCC(CNCc2c[nH]nc2C(C)(C)C)C1 (stereo unspecified),45.4,37.29
CCCS(=O)(=O)NCC(O)c1c(Cl)cccc1Cl (stereo unspecified),8.117 & 2.064,-
CCN1CC2(CC1=O)CN(Cc1cnn(C)c1)CCN(C(=O)C(C)C)C2.O=C(O)C(F)(F)F (stereo unspecified),-,10.22 & 70.11
CC1CCC(N2Cc3nc(N)ncc3C2=O)CC1 (stereo unspecified),41.5,1.61
c1ccc2oc(NC3CCCN(Cc4noc(C5CC5)n4)C3)nc2c1 (stereo unspecified),69.95,-
COc1ccc(C(C)NS(=O)(=O)c2ccc3c(c2)CCC(=O)N3)cc1F (stereo unspecified),-0.2548 & -5.426,-22.28
CC(=O)N1CCC(c2cnc(-c3c(C)nn(C)c3C)cn2)CC1,1.747,-
CC(C)c1noc(C2CCCN2S(=O)(=O)N2CCCCCC2)n1 (stereo unspecified),-11.43,-
CS(=O)(=O)NC[C@H]1Cn2c(-c3ccc(F)cc3)cnc2CO1,-24.89 & 0.3723,-
O=C(Nc1cn[nH]c1)c1ccncc1,10.68,-
O=C(OCCNc1ncccn1)c1ccc(Cl)s1,56.49,-
O=C(NCc1ccc2c(c1)OCO2)N1CCCC2(C1)OCCO2,2.404 & -19.46,0.7539
Cc1nc(C2CCCN(C(=O)c3ccoc3)C2)no1 (stereo unspecified),-3.59,-
CNc1cc2c(nn1)CCN(C(=O)c1cccc3c1OCCO3)C2,66.33,-
Cc1cc(S(=O)(=O)NCC(C)(C)N)c(F)cc1F.Cl,24.67,-
CC(C)C(C(=O)NCc1ccccc1-n1cccn1)N(C)C (stereo unspecified),-8.213,-
COc1cc(C(=O)Nc2nc(C)no2)ccc1OC1CCCC1,-14.03,-
CCC(C)Oc1cc(C(=O)Nc2nnc(C(C)C)[nH]2)ccn1 (stereo unspecified),-,22.21
COCCNc1nc2c(c(NCc3ccncc3)n1)CCNCC2,3.052,-
Cc1n[nH]c(C2CN(C(=O)c3cc(Cl)c[nH]3)CCO2)n1 (stereo unspecified),3.731 & -3.791,11.84
O=C(CCc1ccco1)N1CCC(Nc2cccnn2)CC1,2.299 & 18.35,-
Cc1nnc(SCCC(=O)N(C)Cc2ccc(Cl)s2)[nH]1,40.91,-
O=C(O)C(F)(F)F.O=C(O)C(F)(F)F.[H][C@@]12CN(Cc3ccncc3)C[C@]1([H])C(=O)N(c1ccsc1)C2,-3.115,-
Cc1nnc(NCC(c2cccs2)N2CCCC2)c(C#N)c1C (stereo unspecified),-4.399,-
Cc1nc(COCc2cnc3n2CCN(CC2CCC2)C3C)cs1.O=C(O)C(F)(F)F (stereo unspecified),51.54,-
CC(C)N(C)C(=O)COc1ccc(-c2noc(C3CCCO3)n2)cc1 (stereo unspecified),9.637,-
Cc1n[nH]c(C)c1CCNC(=O)Nc1ccc(S(C)(=O)=O)cc1,13.75 & -7.801,5.176
Cc1cccc(CN2CCC3(CCN(c4ncccn4)C3)C2=O)c1 (stereo unspecified),-15.39,-
CN(Cc1nnc(C2CC2)o1)Cc1ccccc1N1CCOCC1,45.83 & 31.81,-
CC(C)NC(=O)c1csc(NC2CC2)n1,19.86,-
CCOc1ccc(N2CCCN=C2NC(=O)c2cccc(C)c2)cc1,-5.993,-20.55
CSCCC(CO)NC(=O)c1sc(-c2ccccc2Cl)nc1C (stereo unspecified),0.6458,-8.555
CC(Nc1nc(-c2ccccc2)nc2c1CCNCC2)c1cccnc1 (stereo unspecified),66.7,-
CN(Cc1cccc(-n2cccn2)c1)C(=O)c1ccnc(N)c1,-12.85,-5.286
c1cnnc(N2CCCC(NCc3nnc(-c4ccco4)o3)C2)c1 (stereo unspecified),-19.93,-
CN(CC1CCCCO1)c1nncc(-c2cccc(F)c2)n1 (stereo unspecified),38,-
CCN(CC)S(=O)(=O)c1ccc(CCC(=O)NCc2cc(C)on2)cc1,-,-14.56
CCOC(=O)NC(CNC(=O)c1cccnc1SC)CC(C)C (stereo unspecified),-14.07 & 0.1416,-
CCc1ccc(C(=O)NC2CCc3nc(C)cn3C2)o1 (stereo unspecified),-,10.85
c1ccc(-c2nc3c(c(NCCn4ccnn4)n2)CCNCC3)nc1,-11.75,-
COc1cccc(CCCn2cnnc2[S+](C)[O-])c1 (stereo unspecified),23.32,-
CC(C)(C)c1nc(CN2CCC(c3ccnn3CCO)CC2)no1,102.5,-
COc1ccc(C[C@H]2CN(C(=O)CN(C)C)CC[C@H]2OC)cc1.O=C(O)C(F)(F)F,-,54.35
COC(=O)c1cc(C)nc(N2CCN(Cc3cc(C(C)C)no3)CC2)n1,-2.917 & 106.3,-
CN(Cc1cnn(C)c1)C(=O)c1ccc(=O)n(C)n1,-4.659 & 61.36,-
[H][C@@]12CCCN1CCCN(c1nc(CCC)nc3c1cnn3C)C2,-11.22,-

The first 8 entries again:

compound,Mtb glucose medium,Mtb cholesterol medium
COCCCN(C)C(=O)Cn1cccc(OC)c1=O,-,-4.166
Brc1cnc(NCc2ccccc2N2CCOCC2)nc1,-,26.52
[H][C@@]12CCCO[C@]1([H])[C@H](NC(=O)CC1CC1)CN(Cc1ccoc1)C2,-,98.22
CCC(CNC(=O)c1ccccc1Br)N1CCc2ccccc2C1 (stereo unspecified),17.94 & 10.77,-
COc1cc(NCc2c(C)noc2C)c(OC)cc1Cl,12,-18.75
Cc1ccc(-c2noc(C(C)(C)NS(C)(=O)=O)n2)cc1F,31,-6.312
CCCn1nnc(NCc2ccc(-c3ccc(Br)cc3)o2)n1,10.86 & 29.41,14.46
O=C(CCc1cccs1)N1CCC(N2CCNC2=O)CC1,10.12,-